# Source: patent publication US20110212235A1, “ANTIMICROBIAL SALT SOLUTIONS FOR CHEESE PROCESSING APPLICATIONS” (priority 2006, published 2011)
# Entries after “also recorded” stand apart in the source; their conditions may differ.
# Assay: Taste test of blue cheese wheels brined with octanoic acid
# Details: blue cheese wheels brined in brine with up to 250 ppm octanoic acid, cured about a month, taste tested
structure (smiles),measurement,value
"CCCCCCCC(=O)O [octanoic acid, octanoic (caprylic) acid]",effect on cheese flavor,No off flavors; also recorded: no detrimental effects on cheese flavor
